Pooled drug test results. Numbers come from NIAID ChemDB, via PubChem.

Shared fields: toxicity to cultured cells; cells: VERO; read-out: CC50

CCn is the concentration with n% toxicity to the cells.

SMILES | method | value
CCn1cc2c(=O)n(C)nc-2c2ccc(-c3ccncc3)cc21 | - | >3.1 µg/mL
O=C(Nc1nc(-c2ccccn2)cs1)c1cc([N+](=O)[O-])cc([N+](=O)[O-])c1 | luminescence | 54 µM
FC(F)(F)c1ccc2c(c1)N(CCCN1CCN(CCC3OCCCO3)CC1)c1ccccc1S2 | - | 7.4 µg/mL
Nc1nc2c(ncn2[C@@H]2OC[C@@](/C=C/P(=O)(O)O)(CO)[C@@H]2F)c(=O)[nH]1 | MTT | >100 µM
O=C1NC(=O)[C@@H](c2c[nH]c3ccccc23)[C@H]1c1c[nH]c2ccccc12 | - | 143 µM
O=C(NC(=O)C1N=C(c2ccccc2)c2ccccc2NC1=O)c1ccco1 | - | 1 µM
C[C@H]1O[C@@H](O[C@H]2CC[C@@]3(C)[C@H](CC[C@@H]4[C@@H]3CC[C@]3(C)[C@@H](C5=CC(=O)OC5)CC[C@]43O)C2)C[C@H](O)[C@@H]1O | MTT | 6.6 µM
O=C1NC(=O)c2c1c1c3cc(Cl)ccc3[nH]c1c1[nH]c3ccc(Cl)cc3c21 | - | >125 µM
C[n+]1ccc(Nc2ccc(NC(=O)c3ccc(Nc4cc[n+](C)c5ccc([N+](=O)[O-])cc45)cc3[N+](=O)[O-])cc2)cc1 | - | >10 µg/mL
Nc1ncnc2c1ncn2C1CC(/C=C/P(=O)(O)O)(C(F)(F)F)CO1 | MTT | >100 µM
O=C(Nc1nc(-c2ccccn2)cs1)C1CC1 | luminescence | >100 µM
O=C(NC(N1CCN(c2cc3c(cc2F)c(=O)c(C(=O)O)cn3C2CC2)CC1)(C(F)(F)F)C(F)(F)F)c1ccccc1 | - | >10 µg/mL
CC(C)(C)OC(=O)N1C[C@H]2C[C@@H]1CC2n1cnc2c(Cl)ncnc21 | MTS | 50 µM
CC(C)O/N=C/c1cc(NC(=S)OC(C)C)ccc1Cl | - | >10 µg/mL
Cc1cccc(C)c1Nc1nc(-c2ccccn2)cs1 | luminescence | 7 µM
Cc1c2c(cc3c1[nH]c1ccccc13)C(c1ccc(Cl)cc1)=NCC2 | - | 0.45 µg/mL
CC(C)(C)OC(=O)N1[C@H]2CC[C@@H]1C(Nc1ncnc(Cl)c1N)C2 | MTS | >147 µM
O=C(NNC=Nc1ccc(C(=O)O)c(O)c1)c1ccncc1 | - | >62.5 µg/mL
Clc1ncnc2c1ncn2C1C[C@H]2[NH2+][C@@H]1c1ccccc12.O=C([O-])C(F)(F)F | MTS | >64 µM
Nc1ncnc2c1ncn2[C@@H]1OC[C@@](/C=C/P(=O)(O)O)(CO)[C@@H]1F | MTT | >100 µM
COC(=O)NC[C@@H]1OC(=O)N2c3cc(F)c(C4=CCN(CCO)CC4)cc3OC[C@@H]12 | resazurin | 57.43 µg/mL
O=C1NC(=O)c2c1c1c([nH]c3cccc(F)c31)c1[nH]c3cccc(F)c3c21 | - | >125 µM
COc1c2ccccc2nc2oc3ccccc3c12 | MTT | 11.77 µg/mL
CCn1cc(C(=O)NCCO)c(=O)c2ccc(-c3ccncc3)cc21 | - | >25 µg/mL
O=C(C(O)CO)N1CC=C(c2c(F)cc(N3CC(COc4ccon4)OC3=O)cc2F)CC1 | resazurin | >64 µg/mL
O=C(NNC=NCc1ccccn1)c1ccncc1 | - | >10 µg/mL
CC(=O)NC[C@H]1CN(c2ccc(N3CCSCC3)c(F)c2)C(=O)O1 | - | >6.25 µg/mL
CC(=O)NC[C@@H]1OC(=O)N2c3cc(F)c(C4=CCN(CCO)CC4)cc3OC[C@@H]12 | resazurin | >64 µg/mL
Clc1ncnc2c1ncn2C1C[C@H]2C[C@@H]1C[NH2+]2.O=C([O-])C(F)(F)F | MTS | 49 µM
Cn1cc(NC(=O)c2cc(NC(=O)CCCCCCCC(=O)Nc3cc(C(=O)Nc4cc(C(=O)NCCC(N)=[NH2+])n(C)c4)n(C)c3)cn2C)cc1C(=O)NCCC(N)=[NH2+] | - | 195 µg/mL
Nc1ncnc2c1ncn2CCOCP(=O)(O)O | MTT | >100 µM
N#Cc1c(Br)n([C@@H]2O[C@H](CO)[C@@H](O)[C@H]2O)c2ncnc(N)c12 | - | 10 µg/mL
NC(=O)c1csc2cc(-c3ccncc3)ccc2c1=O | - | >100 µg/mL
C=CC(O)C#CC#CC(O)C1OC1CCCCCCC | - | >120 µg/mL
O=C(NC1N=C(c2ccccc2)c2ccccc2NC1=O)c1ccccc1[N+](=O)[O-] | - | 2 µM
O=c1cnn([C@@H]2O[C@H](CO)[C@@H](O)[C@H]2O)c(=O)[nH]1 | - | 143 µg/mL
CNc1c2ccccc2nc2oc3ccccc3c12 | MTT | 5.55 µg/mL
C[C@]1(CCP(=O)(O)O)CO[C@@H](n2cnc3c(=O)[nH]c(N)nc32)C1 | - | >100 µM
O=C(N=Nc1c(Cl)c(O)c2ccccc2c1O)c1ccccc1O | - | 1.24 µg/mL
O=C1NC(=O)c2c1c1c3ccccc3[nH]c1c1[nH]c3ccccc3c21 | - | >125 µM
CC(C)(C)C(=O)NC1N=C(c2ccccc2)c2ccccc2NC1=O | - | 6 µM
CO[C@H]1C[C@H](O[C@H]2[C@@H](O)C[C@H](O[C@H]3[C@@H](O)C[C@H](O[C@H]4CC[C@@]5(C)[C@H](CC[C@@H]6[C@@H]5CC[C@]5(C)[C@@H](C7=CC(=O)OC7)CC[C@]65O)C4)O[C@@H]3C)O[C@@H]2C)O[C@H](C)[C@H]1O | MTT | 88.5 µM
COC(=O)NC[C@@H]1OC(=O)N2c3cc(F)c(C4=CCN(C(=O)CO)CC4)cc3OC[C@@H]12 | resazurin | >64 µg/mL
Cc1c([N+](=O)[O-])oc2ccc3ccccc3c12 | - | >10 µg/mL
NC(=O)c1c[se]c([C@@H]2O[C@H](CO)[C@@H](O)[C@H]2O)n1 | - | 610 µg/mL
CO[C@H]1/C=C/O[C@@]2(C)Oc3c(C)c(O)c4c(O)c(c(/C=N/Nc5ccc([N+](=O)[O-])cc5[N+](=O)[O-])c(O)c4c3C2=O)NC(=O)/C(C)=C\C=C\[C@H](C)[C@H](O)[C@@H](C)[C@@H](O)[C@@H](C)[C@H](OC(C)=O)[C@@H]1C | - | 8 µg/mL
CO[C@H]1C[C@H](O[C@H]2CC[C@]3(C=O)[C@H]4CC[C@]5(C)[C@@H](C6=CC(=O)OC6)CC[C@]5(O)[C@H]4CC[C@]3(O)C2)O[C@H](C)[C@H]1O | MTT | >250 µM
O=c1cnn([C@@H]2O[C@H](CO)[C@@H](O)[C@H]2O)c(=O)[nH]1 | - | 85 µg/mL
Cn1cc(NC(=O)c2cc(NC(=O)CCCCCCCCC(=O)Nc3cc(C(=O)Nc4cc(C(=O)NCCC(=N)N)n(C)c4)n(C)c3)cn2C)cc1C(=O)NCCC(=N)N | - | 44.95 µg/mL
O=C(CO)Nc1nc(-c2ccccn2)cs1 | luminescence | >100 µM
NC(=O)c1cn(-c2ccc(Cl)cc2)c2cc(-c3ccncc3)ccc2c1=O | - | >25 µg/mL
Cc1cccc(C)c1Nc1nc(-c2ccn[nH]2)cs1 | luminescence | 44 µM
C=CC(O)C#CC#CC(O)/C=C\CCCCCCCCOC(C)=O | - | >120 µg/mL
CC(Cc1ccccc1)N(C)Cc1ccc(-c2ccc(Cl)cc2)o1 | - | 23.35 µg/mL
NC(=O)c1cn(-c2ccc(Br)cc2)c2cc(-c3ccncc3)ccc2c1=O | - | >12.5 µg/mL
Nc1ncnc2c1ncn2CCOCP(=O)(O)O | - | >100 µM
CN1CCN(CCCN2c3ccccc3Sc3ccc(C(F)(F)F)cc32)CC1 | - | 13.6 µg/mL
C[C@H]1O[C@@H](O[C@H]2[C@@H](O)C[C@H](O[C@H]3CC[C@@]4(C)[C@H](CC[C@@H]5[C@@H]4C[C@@H](O)[C@]4(C)[C@@H](C6=CC(=O)OC6)CC[C@]54O)C3)O[C@@H]2C)C[C@H](O)[C@@H]1O | MTT | 174 µM
Nc1ncn([C@@H]2O[C@H](CO)[C@@H](O)[C@H]2O)c(=O)n1 | - | 320 µg/mL
CC(=O)OC1C2(CC3N4C(=O)C5(CO)SSC4(CC31O)C(=O)N5C)OC(C)C(C)(C)C2=O | - | 0.48 µg/mL
c1ccc(Nc2nc(-c3cnccn3)cs2)nc1 | luminescence | >50 µM
CCN(CC)CC[n+]1ccc2c(C)c3[nH]c4ccccc4c3c(C)c2c1 | - | >10 µg/mL
COc1ccccc1C(=O)NC1N=C(c2ccccc2)c2cc(Cl)ccc2NC1=O | - | 0.7 µM
O=c1c2ccccc2sc2c(CO)ccc(NCCN3CCCCC3)c12 | - | 1.89 µg/mL
CN(C)c1c2ccccc2nc2oc3ccccc3c12 | MTT | >30 µg/mL
CCCCS(=O)(=O)NC(=O)C1N=C(c2ccccc2)c2ccccc2NC1=O | - | 15 µM
O=C(CO)N1CC=C(c2cc3c(cc2F)N2C(=O)O[C@@H](CNC(=O)C(F)(F)F)[C@@H]2CO3)CC1 | resazurin | >64 µg/mL
CC1(C)Nc2cccc3c(N=Nc4ccc(N=Nc5ccccc5)c5ccccc45)ccc(c23)N1 | - | 10.4 µg/mL
Nc1nc2c(ncn2C2CC(/C=C/P(=O)(O)O)(C(F)(F)F)CO2)c(=O)[nH]1 | MTT | >100 µM
Cl.Cl.Cl.FC(F)(F)c1ccc2c(c1)N(CCCN1CCN(CCN3CCCCC3)CC1)c1ccccc1S2 | - | 2.02 µg/mL
COc1ccccc1-c1csc(Nc2ccccc2C(F)(F)F)n1 | luminescence | 54 µM
CCN=c1cc2oc3cc(NCC)c(C)cc3c(-c3ccccc3C(=O)OCC)c-2cc1C | - | 3.13 µg/mL
Nc1ncnc2c1[nH]c[n+]2C1C[C@@H]2C[NH2+][C@H]1C2.O=C([O-])C(F)(F)F.O=C([O-])C(F)(F)F | MTS | >109 µM

Again, the opening 10 rows:

{"SMILES": "CCn1cc2c(=O)n(C)nc-2c2ccc(-c3ccncc3)cc21", "value": ">3.1 µg/mL"}
{"SMILES": "O=C(Nc1nc(-c2ccccn2)cs1)c1cc([N+](=O)[O-])cc([N+](=O)[O-])c1", "method": "luminescence", "value": "54 µM"}
{"SMILES": "FC(F)(F)c1ccc2c(c1)N(CCCN1CCN(CCC3OCCCO3)CC1)c1ccccc1S2", "value": "7.4 µg/mL"}
{"SMILES": "Nc1nc2c(ncn2[C@@H]2OC[C@@](/C=C/P(=O)(O)O)(CO)[C@@H]2F)c(=O)[nH]1", "method": "MTT", "value": ">100 µM"}
{"SMILES": "O=C1NC(=O)[C@@H](c2c[nH]c3ccccc23)[C@H]1c1c[nH]c2ccccc12", "value": "143 µM"}
{"SMILES": "O=C(NC(=O)C1N=C(c2ccccc2)c2ccccc2NC1=O)c1ccco1", "value": "1 µM"}
{"SMILES": "C[C@H]1O[C@@H](O[C@H]2CC[C@@]3(C)[C@H](CC[C@@H]4[C@@H]3CC[C@]3(C)[C@@H](C5=CC(=O)OC5)CC[C@]43O)C2)C[C@H](O)[C@@H]1O", "method": "MTT", "value": "6.6 µM"}
{"SMILES": "O=C1NC(=O)c2c1c1c3cc(Cl)ccc3[nH]c1c1[nH]c3ccc(Cl)cc3c21", "value": ">125 µM"}
{"SMILES": "C[n+]1ccc(Nc2ccc(NC(=O)c3ccc(Nc4cc[n+](C)c5ccc([N+](=O)[O-])cc45)cc3[N+](=O)[O-])cc2)cc1", "value": ">10 µg/mL"}
{"SMILES": "Nc1ncnc2c1ncn2C1CC(/C=C/P(=O)(O)O)(C(F)(F)F)CO1", "method": "MTT", "value": ">100 µM"}

Neighbouring rows are from separate reports. Blank or dashed fields: not listed here.